Measurements published in PubChem BioAssay AID1224852 (National Center for Advancing Translational Sciences (NCATS), 2016).
This is a selection; strong and weak results do not stand in their true shares. Results filed as inconclusive are left out. Calls of active or inactive are those of the source. The call rests on the fitted dose curve; in most records, active means well fitted curve in the direction sought with a large enough effect (not every such curve was filed as active); inconclusive means small, poorly fitted or top-dose-only effect, or effect the other way, or another doubt; inactive means no such curve, though single readings can be large or run the other way.

Assay: Cell viability assay for measurement of the protective activity of small molecules against cell death caused by Zika virus infection in human neural progenitor cells (hNPCs);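 further: 0% = ZIKV-infected cells without compound and 100% = uninfected cells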
Details: hNPC ZIKV-induced death protection, ATP luminescence, 72 h; at 46.1 µM (top of the series)
Source text: National Center for Advancing Translational Sciences [NCATS] Johns Hopkins University School of Medicine Florida State University Assay Overview: Zika virus infection causes cell death in certain cell types including human neural progenitor cells (hNPCs), astrocytes, and astrocytoma cell line (SNB-19). This cell viability assay measures the ATP content (level) in human neural progenitor cells (hNPCs) using a luminescence readout that is proportional to viable cell numbers. Decrease in the luminescence signal after Zika virus infection indicates the cell death caused by Zika virus. Small molecule inhibitors […] the decreased luminescence signal after Zika virus infection, indicating the protective effect of that small molecule on the cell death caused by Zika virus infection. […]
Assay Protocol Summary: The medium for hNPCs consists of DMEM/F12, N2 supplement (ThermoFisher, Cat.# 17502048), NEAA (ThermoFisher, Cat. # 11140050), 2 ug/ml heparin, 2 uM cyclopamine, and B27 (ThermoFisher, Cat. # 17504044). […] The luminescence intensity of the assay plates was measured using a ViewLux plate reader (PerkinElmer). […] The percentage inhibitions of the decreased cell viability by small molecule inhibitors were then calculated.

SMILES | protection, negative = more death
C/C1=C2N=C(/C=C3N=C(/C(C)=C4\[N-][C@@](C)([C@@H]5N=C1[C@](C)(CCC(=O)NC[C@@H](C)OP(=O)([O-])O[C@H]1[C@@H](O)[C@@H](n6cnc7cc(C)c(C)cc76)O[C@@H]1CO)[C@H]5CC(N)=O)[C@@](C)(CC(N)=O)[C@@H]4CCC(N)=O)[C@@](C)(CC(N)=O)[C@@H]\3CCC(N)=O)C(C)(C)[C@@H]/2CCC(N)=O.[C-]#N.[Co+3] | inactive: -3.97%
CCOP(=O)(CC)Oc1ccc([N+](=O)[O-])cc1 (configuration not stated) | inactive: 13.1%
